# Reference: patent US7723021B2, “Methods for treating lentivirus infections” (The J. David Gladstone Institutes, priority 2003, dated 2010)
# Tested on: APOBEC3G in peripheral blood lymphocytes
# Experiment: PBLs incubated with stimulant for 48 hours, Western blot for APOBEC3G (Example 2)
# Format: cell-based, Human
# Conditions: incubated with stimulant for 48 hours versus unstimulated
# Protocol: Human peripheral blood lymphocytes (PBLs) were isolated from blood and then incubated with anti-CD3 antibody (α-CD3), anti-CD28 antibody (α-CD28), IL-9, IL-12, IL-13, IL-15, or IFN-γ for 48 hours. Cells were lysed, the lysates clarified, and the protein concentration of the lysates was quantitated. Equal amounts of proteins in the lysates were separated by SDS-PAGE. After separation of the proteins by SDS-PAGE, the proteins were transferred to a membrane, and antibody to APOBEC3G was used to detect APOBEC3G protein on the membrane. The results are depicted in FIGS. 1-13.
# FIG. 11 depicts the effect of PHA, anti-CD3 antibody, anti-CD28 antibody, and IL-15 on the level of APOBEC3G in peripheral blood lymphocytes. […] Western blot of cell lysates deriving from stimulated and unstimulated peripheral blood lymphocytes. PBLs were isolated from blood and then incubated with the indicated stimulant for 48 hours. Following separation of the proteins by SDS-PAGE, antibody to APOBEC3G was used to detect APOBEC3G protein. As a loading control, anti-β-actin was used to detect β-actin.
substance,measurement,value
IL-2: cytokine,level of APOBEC3G in peripheral blood lymphocytes,upregulation
